This is an account of results in publication PMC6521208.

The data set deals with CC(=O)Oc1ccc([N+](=O)[O-])cc1. Put plainly: purified protein. The settings on record: 50 mM Tris-HCl pH 8.0, 1% Triton X-100, 37 °C, substrate range printed 1.5 to 25 uM.

For CesH (Bacillus paranthracis), the Km (usually the concentration of substrate that gives half-maximal velocity) was 39.6 µM.
